Source: PMC7451656, “In vitro and in vivo growth inhibitory activities of cryptolepine hydrate against several Babesia species and Theileria equi” (PLoS Neglected Tropical Diseases, 2020)

Experiments:
B. bovis = assay: Growth inhibitory fluorescence assay in vitro, B. bovis; format: cell-based, Babesia bovis
Method: (§1) Texas strain of B. bovis and Argentina strain of B. bigemina were grown using bovine red blood cells (RBCs, collected from cattle farm of Obihiro University of Agriculture and Veterinary Medicine and stored at 4°C) in medium 199 (M199; Sigma-Aldrich, Tokyo, Japan) supplemented with 40% bovine serum, while RPMI 1640 medium (Sigma-Aldrich, Tokyo, Japan) was used for B. divergens (German strain) cultivation. The United States Department of Agriculture (USDA) strain of T. equi was grown in equine RBCs (collected from horse farm of Obihiro University of Agriculture and Veterinary Medicine and stored at 4°C) in M199 supplemented with 40% equine serum, and hypoxanthine (MP Biomedicals, Santa Ana, CA, USA) at a final concentration of 13.6 μg/ml was used as a vital supplement, while GIT medium was used for B. caballi (USDA strain) cultivation. Sixty μg/ml of streptomycin, 0.15 μg/ml of amphotericin B, and 60 U/ml of penicillin G (Sigma-Aldrich, Tokyo, Japan) were added to all media to prevent fungal and bacterial contamination. […]
(§2) The inhibition assay was conducted according to the previously described protocol. […] Afterward, the fluorescence was measured using a fluorescence spectrophotometer (Fluoroskan Ascent, Thermo Fisher Scientific, USA) at 485 nm excitation and 518 nm emission wavelengths. The relative fluorescence value was set to percentages after subtracting the mean values of the negative control. […]
(§3) The IC50 values of CRY, DA, CF, and AQ were determined using the nonlinear regression curve fit in GraphPad Prism (GraphPad Software Inc., San Diego, CA, USA). Combination index (CI) values for the drug combination were calculated using CompuSyn software, and the degree of synergism was determined as the weighted average of CI values using a formula [(1 x IC50) + (2 x IC75) + (3 x IC90) + (4 x IC95)]/10 [30]. The differences in parasitemia and hematology profiles in the B. microti–infected mice were analyzed using an independent Student’s t-test and one-way ANOVA test using GraphPad Prism version 5.0 for Windows (GraphPad Software Inc., San Diego, CA, USA). […]

B. divergens = assay: Growth inhibitory fluorescence assay in vitro, B. divergens; format: cell-based, Babesia divergens
Method: as §1, §2, §3

T. equi = assay: Growth inhibitory fluorescence assay in vitro, T. equi; format: cell-based, Theileria equi
Method: as §1, §2, §3

B. bigemina = assay: Growth inhibitory fluorescence assay in vitro, B. bigemina; format: cell-based, Babesia bigemina
Method: as §1, §2, §3

B. caballi = assay: Growth inhibitory fluorescence assay in vitro, B. caballi; format: cell-based, Babesia caballi
Method: as §1, §2, §3

CC(=O)NCC(=O)O.CC(=O)NCC(=O)O.N=C(N)c1ccc(N=NNc2ccc(C(=N)N)cc2)cc1 [DA, diminazene aceturate]
˃ 5000: Selective index HFF (B. caballi; EC50 HFF / IC50 B. caballi) | Selective index MDBK (B. caballi; EC50 MDBK / IC50 B. caballi) | Selective index NIH/3T3 (B. caballi; EC50 NIH/3T3 / IC50 B. caballi)
˃ 140.8: Selective index HFF (T. equi; EC50 HFF / IC50 T. equi) | Selective index MDBK (T. equi; EC50 MDBK / IC50 T. equi) | Selective index NIH/3T3 (T. equi; EC50 NIH/3T3 / IC50 T. equi)
˃ 147.1: Selective index HFF (B. bigemina; EC50 HFF / IC50 B. bigemina) | Selective index MDBK (B. bigemina; EC50 MDBK / IC50 B. bigemina) | Selective index NIH/3T3 (B. bigemina; EC50 NIH/3T3 / IC50 B. bigemina)
˃ 232.5: Selective index HFF (B. divergens; EC50 HFF / IC50 B. divergens) | Selective index MDBK (B. divergens; EC50 MDBK / IC50 B. divergens) | Selective index NIH/3T3 (B. divergens; EC50 NIH/3T3 / IC50 B. divergens)
˃ 285.7: Selective index HFF (B. bovis; EC50 HFF / IC50 B. bovis) | Selective index MDBK (B. bovis; EC50 MDBK / IC50 B. bovis) | Selective index NIH/3T3 (B. bovis; EC50 NIH/3T3 / IC50 B. bovis)
